Results of unrelated studies side by side (data: NIAID ChemDB).

Common to all: tests in culture; organism: HIV-1; measure: EC90

ECn is the concentration giving n% inhibition of infection, replication or growth.

compound | strain | mutations | cells | read by | conditions | result
COc1oc([C@H]2C/C(=C/C(C)=C/c3ccc(Cl)cc3)CO2)c(C)c(=O)c1C | LAI |  | PBMC + LC5-RIC | fluorescence |  | 2.937 µM
CC(C)(C)NC(=O)[C@@H]1C[C@@H]2CCCC[C@@H]2CN1C[C@@H](O)[C@H](Cc1ccccc1)NC(=O)[C@H](CC(N)=O)NC(=O)c1ccc2ccccc2n1 | NL4-3 | PR-D30N M46I A71V | MT-4 | p24 |  | 0.01 µM
CCOc1ccc(Cc2cc(C3CCN(C[C@H]4CN([C@@H](C(=O)O)[C@H](C)CC)C[C@@H]4c4cccc(F)c4)CC3)n(CC)n2)cc1F | BaL |  | HeLa | β-galactosidase |  | <0.00014 µM
COCCNC(=O)[C@@H](NC(=O)[C@H](Cc1ccc(OC)c(OC)c1OC)C[C@H](O)[C@H](Cc1ccccc1)NC(=O)OC(C)(C)C)C(C)C | LAI |  | PBL | RT activity |  | 0.045 µM
CC(C)c1c(CO)cn(Cc2ccncc2)c1Sc1ccccc1 |  | RT-K103N |  | cytopathic effect / MTT |  | 9.6 µM
CC[C@@H](C)[C@H](C(=O)O)N1C[C@H](CN2CCC(c3cc(Cc4ccc(S(=O)(=O)c5ccccc5)cc4)nn3CC)CC2)[C@@H](c2cccc(F)c2)C1 | BaL |  | HeLa | β-galactosidase |  | 0.0004 µM
O=c1[nH]cnc2c1ncn2[C@H]1CC[C@@H](CO)O1 | NL-XM WT |  | MT-4 | p24 |  | 6.9 µM
Cc1cn([C@H]2C[C@H](C#N)[C@@H](CO)O2)c(=O)[nH]c1=O | RF |  | C8166 | cytopathic effect |  | >100 µg/mL
CC(C)CN(C[C@@H](O)[C@H](Cc1ccccc1)NC(=O)O[C@H]1CCOC1)S(=O)(=O)c1ccc(N)cc1 | HXB2 | PR-M46I I47V I50V | PBMC | p24 |  | 1.94 µM
Cc1cn([C@H]2C[C@H](N=[N+]=[N-])[C@@H](CO)O2)c(=O)[nH]c1=O | XM-T69SSS | RT-T69SSS L210W T215Y | PBMC | p24 |  | 56 µM
CC(C)c1c(CO)cn(Cc2ccncc2)c1Sc1cc(Cl)cc(Cl)c1 |  | RT-K103N |  | cytopathic effect / MTT |  | 2.3 µM
Nc1nc(=O)n([C@@H]2CS[C@H](CO)O2)cc1F |  | M184V | Primary T lymphocytes | p24 / ELISA |  | 41.3 µM
COC(=O)c1ccc(/C=C(C)/C=C2\CO[C@@H](c3oc(OC)c(C)c(=O)c3C)C2)cc1 | LAI |  | PBMC + LC5-RIC | fluorescence |  | 141 µM
Nc1ccn([C@@H]2CS[C@H](CO)O2)c(=O)n1 | LAI |  | Primary T lymphocytes | p24 / ELISA |  | 3.1 µM
COc1oc([C@H]2C/C(=C/C(C)=C/c3cccc(C(F)(F)F)c3)CO2)c(C)c(=O)c1C | LAI |  | PBMC + LC5-RIC | fluorescence |  | 0.2422 µM
CC(C)c1c(COC(N)=O)cn(Cc2ccncc2)c1Sc1cc(Cl)cc(Cl)c1 |  | RT-Y181C | C8166 | p24 |  | 20 µM
CCCOc1ccc(Cc2cc(C3CCN(C[C@H]4CN([C@@H](C(=O)O)C(C)C)C[C@@H]4c4cccc(F)c4)CC3)n(CC)n2)cc1 | BaL |  | HeLa | β-galactosidase |  | 0.0037 µM
C1CNCCNCCCN[C@H]([C@@H]2CNCCCNCCNCCCN2)CNC1 | IIIB |  | CEM | antigen |  | 2.32 µM
CCn1nc(Cc2ccc(C)cc2)cc1C1CCN(C[C@H]2CN([C@@H](C(=O)O)C(C)(C)C)C[C@@H]2c2cccc(F)c2)CC1 | BaL |  | HeLa | β-galactosidase |  | <0.00014 µM
CC(C)CN(C[C@@H](O)[C@H](Cc1ccccc1)NC(=O)[C@H](CC(N)=O)NC(=O)c1ccc2ccccc2n1)C(=O)NC(C)(C)C | LAI |  | PBL | RT activity |  | 0.3 µM
C1CNCCNCCCN(CCCN2CCCNCCNCCCNCC2)CCNC1 | IIIB |  | HuT-78 + HUT 78 | antigen |  | 3.98 µM
Cc1cn([C@H]2C=C[C@@H](CO)O2)c(=O)[nH]c1=O | LAI |  | Primary T lymphocytes | p24 / ELISA |  | 6.4 µM
Nc1ccn([C@H]2CC[C@@H](CO)O2)c(=O)n1 | IIIB |  | H9 | p24 |  | 0.206 µM
CCn1nc(Cc2ccc3ccccc3c2)cc1C1CCN(C[C@H]2CN([C@@H](C(=O)O)C(C)(C)C)C[C@@H]2c2cccc(F)c2)CC1 | BaL |  | HeLa | β-galactosidase | 50% human serum | 0.1 µM
CC(C)CN(C[C@@H](O)[C@H](Cc1ccccc1)NC(=O)[C@@H](NC(=O)CNCc1cccc(F)c1)C(C)(C)C)S(=O)(=O)c1cccc(N)c1 | IIIB |  | PBMC | virus yield |  | 0.012 µM
CC[C@H](C)[C@H](C(=O)O)N1C[C@H](CN2CCC(c3cc(Cc4cccc(CN)c4)nn3CC)CC2)[C@@H](c2cccc(F)c2)C1 | BaL |  | HeLa | β-galactosidase | 50% human serum | 0.011 µM
COc1oc([C@H]2C/C(=C/C(C)=C/c3ccccc3Cl)CO2)c(C)c(=O)c1C | LAI |  | PBMC + LC5-RIC | fluorescence |  | 4.211 µM
O=C(Nc1cc(S(=O)(=O)O)cc2cc(S(=O)(=O)O)c(N=Nc3ccc(N=Nc4c(S(=O)(=O)O)cc5cc(S(=O)(=O)O)cc(NC(=O)c6cccc(Cl)c6Cl)c5c4O)cc3)c(O)c12)c1ccc(Cl)cc1Cl | BaL |  | MONO/MACRO + Monocytes/macrophages |  |  | 0.63 µg/mL
CC(C)c1c(COC(N)=O)cn(Cc2ccncc2)c1Sc1ccccc1 |  | RT-Y181C | C8166 | p24 |  | >100 µM
CCn1nc(Cc2ccc(O)cc2)cc1C1CCN(C[C@H]2CN([C@@H](C(=O)O)C(C)(C)C)C[C@@H]2c2cccc(F)c2)CC1 | BaL |  | HeLa | β-galactosidase | 50% human serum | 0.011 µM

The last 3 rows once more:

compound	strain	mutations	cells	read by	conditions	result
O=C(Nc1cc(S(=O)(=O)O)cc2cc(S(=O)(=O)O)c(N=Nc3ccc(N=Nc4c(S(=O)(=O)O)cc5cc(S(=O)(=O)O)cc(NC(=O)c6cccc(Cl)c6Cl)c5c4O)cc3)c(O)c12)c1ccc(Cl)cc1Cl	BaL		MONO/MACRO + Monocytes/macrophages			0.63 µg/mL
CC(C)c1c(COC(N)=O)cn(Cc2ccncc2)c1Sc1ccccc1		RT-Y181C	C8166	p24		>100 µM
CCn1nc(Cc2ccc(O)cc2)cc1C1CCN(C[C@H]2CN([C@@H](C(=O)O)C(C)(C)C)C[C@@H]2c2cccc(F)c2)CC1	BaL		HeLa	β-galactosidase	50% human serum	0.011 µM

Conditions beyond the fields shown may differ between rows. Blank or dashed fields: not listed here.